Data on 1 substance can be found in US20240043507A1.

For the assay, the target named is SARS-CoV-2 spike receptor binding domain, native (SARS-CoV-2) (UniProt P0DTC2). Description: BLI, RBD on AR2G biosensor, mAb as analyte. In general terms: In BLI a coated tip is dipped into the sample, and binding shifts an interference pattern.

As a reminder, the pKd is the negative decadic logarithm of the Kd, by convention in mol/L.

pKd: −log10 of the molar value.

Regarding AZD8895 (antibody), the pKd was 8.66.
